{"source": "PubChem BioAssay AID1259414 – Drosophila RNAi Screening Center – 2018", "test": "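Host factors increasing or decreasing Wolbachia levels in cultured fly cells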 (primary screen)", "cells": "Drosophila JW18 cells infected with Wolbachia", "knock-down reagent": "long dsRNA against Drosophila genes, 0.25 µg dsRNA per well of a 384-well plate", "timing": "5 days", "challenge": "cells persistently infected with Wolbachia before knock-down; no added drug", "detection": "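Automated imaging of bacterial rRNA staining divided by host cell count, reported as plate-normalised robust z-score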", "scale": "Wolbachia per cell robust z: higher = more Wolbachia per host cell than the plate typical", "active means": "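Active if absolute robust z reaches 1.5 in two or more of three replicates, leaving out multi- or no-target dsRNAs, genes unexpressed in JW18 and A1 wells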", "note": "In all, the deposit lists about 24,000 reagents; shown is a random part of those with a known target gene and a result. In the full data, about 1,210 (5%) were called active. 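Inactive calls also include excluded dsRNAs with several or no targets, genes unexpressed in JW18, and well A1, regardless of score.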"}
The opening 2 records, to show the layout:
{"target":"CG4073","amplicon":"DRSC15542","Wolbachia per cell robust z, rep 1":0.403,"Wolbachia per cell robust z, rep 2":-0.854,"Wolbachia per cell robust z, rep 3":0.225,"outcome":"inactive"}
{"target":"CG4631","amplicon":"DRSC02766","Wolbachia per cell robust z, rep 1":-1.92,"Wolbachia per cell robust z, rep 2":0.445,"Wolbachia per cell robust z, rep 3":0.901,"outcome":"inactive"}

The list itself, from the first entry:
{"target":"CG4073","amplicon":"DRSC15542","Wolbachia per cell robust z, rep 1":0.403,"Wolbachia per cell robust z, rep 2":-0.854,"Wolbachia per cell robust z, rep 3":0.225,"outcome":"inactive"}
{"target":"CG4631","amplicon":"DRSC02766","Wolbachia per cell robust z, rep 1":-1.92,"Wolbachia per cell robust z, rep 2":0.445,"Wolbachia per cell robust z, rep 3":0.901,"outcome":"inactive"}
{"target":"CG4631","amplicon":"DRSC22194","Wolbachia per cell robust z, rep 1":0.602,"Wolbachia per cell robust z, rep 2":0.731,"Wolbachia per cell robust z, rep 3":1,"outcome":"inactive"}
{"target":"CG14669","amplicon":"DRSC12255","Wolbachia per cell robust z, rep 1":-0.449,"Wolbachia per cell robust z, rep 2":0.967,"Wolbachia per cell robust z, rep 3":0.0143,"outcome":"inactive"}
{"target":"CG14669","amplicon":"DRSC26823","Wolbachia per cell robust z, rep 1":0.0528,"Wolbachia per cell robust z, rep 2":-0.438,"Wolbachia per cell robust z, rep 3":-0.6,"outcome":"inactive"}
{"target":"AP-1gamma","amplicon":"DRSC18433","Wolbachia per cell robust z, rep 1":-1.33,"Wolbachia per cell robust z, rep 2":1.01,"Wolbachia per cell robust z, rep 3":0.134,"outcome":"inactive"}
{"target":"Hs3st-B","amplicon":"DRSC20067","Wolbachia per cell robust z, rep 1":0.187,"Wolbachia per cell robust z, rep 2":0.445,"Wolbachia per cell robust z, rep 3":0.463,"outcome":"inactive"}
{"target":"CG43254","amplicon":"DRSC40533","Wolbachia per cell robust z, rep 1":-0.947,"Wolbachia per cell robust z, rep 2":0.211,"Wolbachia per cell robust z, rep 3":-1.13,"outcome":"inactive"}
{"target":"CG7789","amplicon":"DRSC16312","Wolbachia per cell robust z, rep 1":-0.376,"Wolbachia per cell robust z, rep 2":-0.12,"Wolbachia per cell robust z, rep 3":-0.445,"outcome":"inactive"}
{"target":"CG7789","amplicon":"DRSC41623","Wolbachia per cell robust z, rep 1":-2.96,"Wolbachia per cell robust z, rep 2":-1.06,"Wolbachia per cell robust z, rep 3":-1.28,"outcome":"inactive"}
{"target":"CG18367","amplicon":"DRSC06545","Wolbachia per cell robust z, rep 1":1.21,"Wolbachia per cell robust z, rep 2":0.125,"Wolbachia per cell robust z, rep 3":-0.225,"outcome":"inactive"}
{"target":"CG18367","amplicon":"DRSC28507","Wolbachia per cell robust z, rep 1":-0.73,"Wolbachia per cell robust z, rep 2":-0.174,"Wolbachia per cell robust z, rep 3":-0.161,"outcome":"inactive"}
{"target":"NimB1","amplicon":"DRSC01880","Wolbachia per cell robust z, rep 1":-0.338,"Wolbachia per cell robust z, rep 2":0.559,"Wolbachia per cell robust z, rep 3":0.586,"outcome":"inactive"}
{"target":"CG17681","amplicon":"DRSC02632","Wolbachia per cell robust z, rep 1":-0.581,"Wolbachia per cell robust z, rep 2":0.68,"Wolbachia per cell robust z, rep 3":-0.0889,"outcome":"inactive"}
{"target":"bru1","amplicon":"DRSC01234","Wolbachia per cell robust z, rep 1":0.88,"Wolbachia per cell robust z, rep 2":0.518,"Wolbachia per cell robust z, rep 3":0.586,"outcome":"inactive"}
{"target":"bru1","amplicon":"DRSC01236","Wolbachia per cell robust z, rep 1":0.278,"Wolbachia per cell robust z, rep 2":1.1,"Wolbachia per cell robust z, rep 3":-0.26,"outcome":"inactive"}
{"target":"bru1","amplicon":"DRSC01237","Wolbachia per cell robust z, rep 1":0.623,"Wolbachia per cell robust z, rep 2":0.648,"Wolbachia per cell robust z, rep 3":0.551,"outcome":"inactive"}
{"target":"bru1","amplicon":"DRSC01238","Wolbachia per cell robust z, rep 1":0.307,"Wolbachia per cell robust z, rep 2":0.58,"Wolbachia per cell robust z, rep 3":0.925,"outcome":"inactive"}
{"target":"bru1","amplicon":"DRSC03485","Wolbachia per cell robust z, rep 1":1.96,"Wolbachia per cell robust z, rep 2":1.49,"Wolbachia per cell robust z, rep 3":0.0776,"outcome":"inactive"}
{"target":"Polr1B","amplicon":"DRSC00780","Wolbachia per cell robust z, rep 1":0.452,"Wolbachia per cell robust z, rep 2":-0.648,"Wolbachia per cell robust z, rep 3":-0.0478,"outcome":"inactive"}
{"target":"Tim8","amplicon":"DRSC20291","Wolbachia per cell robust z, rep 1":-0.04,"Wolbachia per cell robust z, rep 2":-2.4,"Wolbachia per cell robust z, rep 3":0.23,"outcome":"inactive"}
{"target":"blanks","amplicon":"DRSC09757","Wolbachia per cell robust z, rep 1":0.0304,"Wolbachia per cell robust z, rep 2":-0.692,"Wolbachia per cell robust z, rep 3":0.244,"outcome":"inactive"}
{"target":"CG42364","amplicon":"DRSC40614","Wolbachia per cell robust z, rep 1":-2.52,"Wolbachia per cell robust z, rep 2":0.198,"Wolbachia per cell robust z, rep 3":-1.37,"outcome":"inactive"}
{"target":"Odc2","amplicon":"DRSC07483","Wolbachia per cell robust z, rep 1":0.0407,"Wolbachia per cell robust z, rep 2":0.704,"Wolbachia per cell robust z, rep 3":-0.183,"outcome":"inactive"}
{"target":"Odc2","amplicon":"DRSC26384","Wolbachia per cell robust z, rep 1":0.577,"Wolbachia per cell robust z, rep 2":0.493,"Wolbachia per cell robust z, rep 3":-0.585,"outcome":"inactive"}
{"target":"Odc2","amplicon":"DRSC38969","Wolbachia per cell robust z, rep 1":1.66,"Wolbachia per cell robust z, rep 2":0.829,"Wolbachia per cell robust z, rep 3":1.56,"outcome":"inactive"}
